PubChem BioAssay AID504761 | Drosophila RNAi Screening Center – 2011
The screen tested about 22,000 reagents; shown is an unselected part of those with a known target gene and a result. Over the whole deposit, 116 (0.52%) are marked active. 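Calls depend on retest data that are not deposited; infection was ranked per plate without normalising between plates; the unit of the infection score is not given.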 The raw values are shown without normalisation. A plus sign joins genes that one reagent is predicted to hit. The record does not give: the amount of reagent, the time to read-out.

- Screen: 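Fly genes whose silencing reduces dengue virus type 2 infection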 (primary screen)
- Cell system: D.Mel-2 cells from Drosophila
- Knock-down reagent: long dsRNA against Drosophila genes
- Conditions: infection with dengue virus type 2; dose and infection time not stated
- Measured: 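Cells stained for dengue envelope protein and imaged; percent of infected cells per well on duplicate plates, ranked by infection, with stained nuclei counted for cell number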
- Scale: infection score: higher = more virus-infected cells; cell count: higher = more cells in the well
- Active means: 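Very low infection ranking in both replicate wells (chance probability at most 0.065), then a retest showing infection dropped 1.5-fold or more at p below 0.05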
- Meaning of the calls: active = confirmed: knock-down lowers infection; inactive = not picked or not confirmed

Against Lamtor5 [DRSC18491], the entry reads infection score, replicate 2 = 10.1; cell count, replicate 1 = 328; cell count, replicate 2 = 3267; inactive.
With knock-down of CG9444 [DRSC16493] the results were infection score, replicate 1 = 3.88; infection score, replicate 2 = 4.57; cell count, replicate 1 = 6088; cell count, replicate 2 = 6305; inactive.
Depletion of beat-IIIc [DRSC02438] gave: infection score, replicate 1 = 5.54; infection score, replicate 2 = 1.28; cell count, replicate 1 = 6394; cell count, replicate 2 = 6491; inactive.
After knock-down of beat-IIIc [DRSC02949], the screen gave infection score, replicate 1 = 4.01; infection score, replicate 2 = 4.43; cell count, replicate 1 = 6540; cell count, replicate 2 = 6346; inactive.
With knock-down of wdb [DRSC14163], the screen gave infection score, replicate 1 = 9.64; infection score, replicate 2 = 4.22; cell count, replicate 1 = 5402; cell count, replicate 2 = 6377; inactive.
CG32488 [DRSC08549] gave infection score, replicate 1 = 2.06; infection score, replicate 2 = 2.59; cell count, replicate 1 = 6459; cell count, replicate 2 = 6400; inactive.
After knock-down of CG32488 [DRSC21537], the screen gave infection score, replicate 1 = 5.93; infection score, replicate 2 = 4.96; cell count, replicate 1 = 6275; cell count, replicate 2 = 6547; inactive.
Against Ilk [DRSC11868] the deposit lists infection score, replicate 1 = 2.25; infection score, replicate 2 = 3.68; cell count, replicate 1 = 6759; cell count, replicate 2 = 6662; inactive.
Depletion of mei-38 [DRSC18564] gave: infection score, replicate 1 = 2.43; infection score, replicate 2 = 3.18; cell count, replicate 1 = 5969; cell count, replicate 2 = 6382; inactive.
CG6094 [DRSC02927] gave infection score, replicate 1 = 4.16; infection score, replicate 2 = 5.7; cell count, replicate 1 = 6061; cell count, replicate 2 = 6787; inactive.
Against CG6094 [DRSC22705], the values are infection score, replicate 1 = 8.15; infection score, replicate 2 = 4.37; cell count, replicate 1 = 5104; cell count, replicate 2 = 5588; inactive.
Depletion of CG6094 [DRSC29084] came out at: infection score, replicate 1 = 27.8; infection score, replicate 2 = 14.8; cell count, replicate 1 = 4560; cell count, replicate 2 = 5267; inactive.
For Tailor [DRSC12526] the deposit lists infection score, replicate 1 = 2.3; infection score, replicate 2 = 2.09; cell count, replicate 1 = 6562; cell count, replicate 2 = 6420; inactive.
Depletion of Mi-2 + Su(Tpl) [DRSC09640] gave: infection score, replicate 1 = 2.21; infection score, replicate 2 = 1.53; cell count, replicate 1 = 6552; cell count, replicate 2 = 5948; inactive.
Depletion of IntS9 [DRSC10493] came out at: infection score, replicate 1 = 7.5; infection score, replicate 2 = 12.4; cell count, replicate 1 = 5065; cell count, replicate 2 = 3285; inactive.
IntS9 [DRSC28991] gave infection score, replicate 1 = 16.8; infection score, replicate 2 = 6.88; cell count, replicate 1 = 4397; cell count, replicate 2 = 5362; inactive.
Tlk [DRSC17731] showed infection score, replicate 1 = 0.54; infection score, replicate 2 = 4.54; cell count, replicate 1 = 7156; cell count, replicate 2 = 6801; inactive.
Against Tlk [DRSC22924] the deposit lists infection score, replicate 1 = 0.89; infection score, replicate 2 = 1.85; cell count, replicate 1 = 6886; cell count, replicate 2 = 7466; inactive.
Depletion of Tlk [DRSC22926] gave: infection score, replicate 1 = 1.02; infection score, replicate 2 = 1.24; cell count, replicate 1 = 6753; cell count, replicate 2 = 7577; inactive.
Against Tlk [DRSC23163], the entry reads infection score, replicate 1 = 3.61; infection score, replicate 2 = 22.2; cell count, replicate 1 = 6840; cell count, replicate 2 = 6981; inactive.
Depletion of TM4SF [DRSC04661] came out at: infection score, replicate 1 = 15.7; infection score, replicate 2 = 31.6; cell count, replicate 1 = 6591; cell count, replicate 2 = 5560; inactive.

2 of these entries, set out differently:
{"target gene":"wdb","dsRNA":"DRSC14163","infection score, replicate 1":9.64,"infection score, replicate 2":4.22,"cell count, replicate 1":5402,"cell count, replicate 2":6377,"Call":"inactive"}
{"target gene":"CG32488","dsRNA":"DRSC08549","infection score, replicate 1":2.06,"infection score, replicate 2":2.59,"cell count, replicate 1":6459,"cell count, replicate 2":6400,"Call":"inactive"}
